Results of unrelated studies side by side (data: NIAID ChemDB).

All rows: tests in culture; organism: HIV-2

ECn: concentration that inhibits the pathogen or its effect by n%. Blank or dashed fields: not listed here. Lines come from different laboratories, so protocols vary.

compound,measure,cell line,method,strain or isolate,conditions,result
Cc1cc(C#Cc2ccc(C(=O)O)cc2)cc(C)c1Oc1ccnc(Nc2ccc(C#N)cc2)n1,EC50,MT-4,MTT,ROD,-,>25 µM
c1cc2cc(NCCCNC3=NCCCN3)ccc2[nH]1,EC50,MT-4,MTT,ROD,-,>167 µM
Cc1cn([C@@H]2O[C@H](CO[Si](C)(C)C(C)(C)C)C3(OS(=O)(=O)C=C3N)[C@H]2O[Si](C)(C)C(C)(C)C)c(=O)n(CC(=O)N[C@@H](C)C(=O)OCc2ccccc2)c1=O,EC50,MT-4,cytopathic effect / trypan blue,ROD,-,>250 µM
Cc1cccc2c1OP(=O)(OC[C@@H]1C=C[C@H](n3cc(C)c(=O)[nH]c3=O)O1)OC2,EC50,CEM + CEM TK-,syncytia,LAV-2,-,0.55 µM
Cc1cn([C@@H]2O[C@H](CO[Si](C)(C)C(C)(C)C)C3(OS(=O)(=O)C=C3N)[C@H]2O[Si](C)(C)C(C)(C)C)c(=O)n(CC(=O)N[C@@H](C)C(=O)O)c1=O,EC50,MT-4,cytopathic effect / trypan blue,ROD,-,32 µM
O=c1ccn([C@H]2C[C@H](F)[C@@H](CO)O2)c(=O)[nH]1,EC50,MT-4,cytopathic effect,LAV-2,-,0.16 µM
Cc1cn([C@@H]2O[C@H](CO[Si](C)(C)C(C)(C)C)[C@@]3(OS(=O)(=O)C=C3N)[C@H]2O[Si](C)(C)C(C)(C)C)c(=O)n(CC(=O)N[C@@H](CCC(=O)O)C(=O)O)c1=O,EC50,CEM,syncytia,ROD,-,105 µM
C1CNCCNCCCN(CCCN2CCCNCCNCCCNCC2)CCNC1,EC90,MT-4,cytopathic effect / MTT,EHO,-,3.6 µM
Cc1cn([C@H]2C[C@H](N=[N+]=[N-])[C@@H](COC(=O)CCC(=O)OC[C@H]3O[C@@H]4O[C@H]5[C@H](O)[C@@H](O)[C@@H](O[C@H]6[C@H](O)[C@@H](O)[C@@H](O[C@H]7[C@H](O)[C@@H](O)[C@@H](O[C@H]8[C@H](O)[C@@H](O)[C@@H](O[C@H]9[C@H](O)[C@@H](O)[C@@H](O[C@H]%10[C@H](O)[C@@H](O)[C@@H](O[C@H]3[C@H](O)[C@H]4O)O[C@@H]%10CO)O[C@@H]9CO)O[C@@H]8CO)O[C@@H]7CO)O[C@@H]6CO)O[C@@H]5CO)O2)c(=O)[nH]c1=O,EC50,MT-4,cytopathic effect / MTT,ROD,-,0.0575 µg/mL
Cc1cn([C@H]2C[C@H](N=[N+]=[N-])[C@@H](CN3C(=O)c4ccc([N+](=O)[O-])cc4C3=O)O2)c(=O)[nH]c1=O,EC50,CEM,syncytia,ROD,-,14.1 µM
C1CNCCNCCCN(CCCC2CNCCCNCCNCCCN2)CCNC1,EC50,MT-4,cytopathic effect / MTT,ROD,-,3.56 µM
CCc1c(OCc2cccc3ccccc23)cc(C)oc1=O,EC50,CEM,MTT,ROD,-,>0.4 µM
C1CNCCNCCCN[C@H]([C@@H]2CNCCCNCCNCCCN2)CNC1,EC90,CEM,antigen,ROD,-,0.58 µM
Cc1cn([C@H]2C=C[C@@H](COP3(=O)OCc4cccc(CCC(=O)O)c4O3)O2)c(=O)[nH]c1=O,EC50,CEM + CEM/O,syncytia,LAV-2,-,1.4 µM
Cc1cn([C@H]2C[C@H](N=[N+]=[N-])[C@@H](CN3C(=O)c4cc(Cl)c(Cl)cc4C3=O)O2)c(=O)[nH]c1=O,EC50,CEM + CEM TK-,syncytia,ROD,-,>200 µM
CC(=O)OCOC(=O)CCc1ccc2c(c1)COP(=O)(OC[C@@H]1C=C[C@H](n3cc(C)c(=O)[nH]c3=O)O1)O2,EC50,CEM + CEM/O,syncytia,LAV-2,-,0.53 µM
O=c1ccn([C@H]2CC[C@@H](CO)O2)c(=O)[nH]1,EC50,MT-4,cytopathic effect / MTT,ROD,-,43 µg/mL
Cc1cc(C#Cc2ccccc2)cc(C)c1Oc1ccnc(NC2CCN(Cc3ccc(S(N)(=O)=O)cc3)CC2)n1,EC50,MT-4,MTT,ROD,-,>0.766 µM
Cc1cn([C@H]2C[C@H](N=[N+]=[N-])[C@@H](CN3C(=S)c4ccccc4C3=S)O2)c(=O)[nH]c1=O,EC50,CEM,syncytia,ROD,-,4.3 µM
Cc1cc(S(=O)(=O)CCc2cccc3ccccc23)c(Br)c(=O)o1,EC50,CEM,MTT,ROD,-,>10 µM
Cc1cc(C#Cc2ccccn2)cc(C)c1Oc1ccnc(Nc2ccc(C#N)cc2)n1,EC50,MT-4,MTT,ROD,-,>2.068 µM
Cc1cn([C@H]2C[C@H](N=[N+]=[N-])[C@@H](CO)O2)c(=O)[nH]c1=O,EC50,MT-4,cytopathic effect,LAV-2,-,0.004 µM
CC(C)(C)OC(=O)[C@@H]1CCCN1C[C@H](O)[C@H](Cc1ccccc1)NC(=O)[C@H](CC(N)=O)NC(=O)OCc1ccccc1,EC50,MT-4,cytopathic effect / MTT,ROD,-,90 µg/mL
Cc1cc(NCc2cccc3ccccc23)cc(=O)o1,EC50,CEM,MTT,ROD,-,>10 µM
CCc1c(C(=O)c2cc(C)cc(C)c2)n(CC2CC=CC2)c(=O)[nH]c1=O,EC50,PBMC,cytopathic effect / XTT,CDC310319,clinical isolate,0.04 µM
Nc1ncnc2c1ncn2[C@H]1C=C[C@@H](CO)O1,EC50,MOLT-4/C8 + MOLT-4,-,ROD,-,25 µM
c1cc2cc(NCCNC3=NCCCN3)ccc2[nH]1,EC50,MT-4,MTT,ROD,-,58.14 µM
Cc1cc(C#Cc2cccc(N)c2)cc(C)c1Oc1ccnc(NC2CCN(c3cccc(C(N)=O)c3)CC2)n1,EC50,MT-4,MTT,ROD,-,>1.063 µM
NCCNc1ccc2[nH]ccc2c1,EC50,MT-4,MTT,ROD,-,>253 µM
C[C@H](CCC(=O)NCCS(=O)(=O)O)[C@H]1CC[C@H]2[C@@H]3CC[C@@H]4C[C@H](O)CC[C@]4(C)C3CC[C@]12C,EC50,MT-4,cytopathic effect / MTT,ROD,-,>194 µg/mL
Cc1cn([C@H]2C[C@H](N=[N+]=[N-])[C@@H](COC(=O)CCC(=O)OC[C@H]3O[C@@H]4O[C@H]5[C@H](O)[C@@H](O)[C@@H](O[C@H]6[C@H](O)[C@@H](O)[C@@H](O[C@H]7[C@H](O)[C@@H](O)[C@@H](O[C@H]8[C@H](O)[C@@H](O)[C@@H](O[C@H]9[C@H](O)[C@@H](O)[C@@H](O[C@H]3[C@H](O)[C@H]4O)O[C@@H]9CO)O[C@@H]8CO)O[C@@H]7CO)O[C@@H]6CO)O[C@@H]5CO)O2)c(=O)[nH]c1=O,EC50,MT-4,cytopathic effect / MTT,ROD,-,0.042 µg/mL
NCCCCNc1ccc2[nH]ccc2c1,EC50,MT-4,MTT,ROD,-,>19.23 µM
Cc1cccc(C)c1Oc1ccnc(Nc2ccc(C#N)cc2)n1,EC50,MT-4,MTT,ROD,-,>12.1 µM
Cc1cn([C@H]2C[C@H](N=[N+]=[N-])[C@@H](CN3C(=O)c4cccc([N+](=O)[O-])c4C3=O)O2)c(=O)[nH]c1=O,EC50,CEM + CEM TK-,syncytia,ROD,-,>200 µM
NC(N)=NCCNc1ccc2[nH]ccc2c1.O=S(O)O,EC50,MT-4,MTT,ROD,-,>77.68 µM
Cc1cn([C@H]2C[C@H](N=[N+]=[N-])[C@@H](COC(=O)CCC(=O)OCC3OC4OC5C(COS(=O)(=O)O)OC(OC6C(COS(=O)(=O)O)OC(OC7C(COS(=O)(=O)O)OC(OC8C(COS(=O)(=O)O)OC(OC9C(COS(=O)(=O)O)OC(OC3C(OS(=O)(=O)O)C4OS(=O)(=O)O)C(OS(=O)(=O)O)C9OS(=O)(=O)O)C(OS(=O)(=O)O)C8OS(=O)(=O)O)C(OS(=O)(=O)O)C7OS(=O)(=O)O)C(OS(=O)(=O)O)C6OS(=O)(=O)O)C(OS(=O)(=O)O)C5OS(=O)(=O)O)O2)c(=O)[nH]c1=O,EC50,MT-4,cytopathic effect / MTT,ROD,-,4.63 µg/mL
O=C(O)C1=CC(=C(c2ccc(O)c(C(=O)O)c2)c2ccc(O)c(C(=O)O)c2)C=CC1=O,EC50,MT-4,cytopathic effect / MTT,ROD,-,2.26 µg/mL
O=c1[nH]c(=O)n([C@H]2C[C@H](F)[C@@H](CO)O2)cc1I,EC50,MT-4,cytopathic effect,LAV-2,-,0.23 µM
O=c1[nH]cnc2c1ncn2[C@H]1CC[C@@H](CO)O1,EC50,MOLT-4/C8 + MOLT-4,-,ROD,-,4.5 µM
Cc1cc(C#Cc2cccc(N)c2)cc(C)c1Oc1ccnc(Nc2ccc(C#N)cc2)n1,EC50,MT-4,MTT,ROD,-,>5.005 µM
O=C(O)P(=O)(O)O,EC50,MT-4,cytopathic effect / MTT,ROD,-,9.5 µg/mL

Repeating the final 5 entries:

compound	measure	cell line	method	strain or isolate	conditions	result
O=C(O)C1=CC(=C(c2ccc(O)c(C(=O)O)c2)c2ccc(O)c(C(=O)O)c2)C=CC1=O	EC50	MT-4	cytopathic effect / MTT	ROD	-	2.26 µg/mL
O=c1[nH]c(=O)n([C@H]2C[C@H](F)[C@@H](CO)O2)cc1I	EC50	MT-4	cytopathic effect	LAV-2	-	0.23 µM
O=c1[nH]cnc2c1ncn2[C@H]1CC[C@@H](CO)O1	EC50	MOLT-4/C8 + MOLT-4	-	ROD	-	4.5 µM
Cc1cc(C#Cc2cccc(N)c2)cc(C)c1Oc1ccnc(Nc2ccc(C#N)cc2)n1	EC50	MT-4	MTT	ROD	-	>5.005 µM
O=C(O)P(=O)(O)O	EC50	MT-4	cytopathic effect / MTT	ROD	-	9.5 µg/mL